System: β-glucuronidases from Escherichia coli, Streptococcus agalactiae, and Clostridium perfringens
Details: catalytic residues mutated from glutamate to alanine

C#CCCCC(=O)Nc1ccc(OC2OC(C(=O)O)C(O)C(O)C2O)c(C(F)F)c1 (stereo not shown) [GlcA-ABP, 6-(2-(difluoromethyl)-4-(hex-5-ynamido)phenoxy)-3,4,5-trihydroxytetrahydro-2H-pyran-2-carboxylic acid]
probe labeling of catalytic-residue mutants: abolished probe labeling

Source: patent US20190086410A1, “FUNCTION-BASED PROBES FOR ENVIRONMENTAL MICROBIOME ANALYSIS AND METHODS OF MAKING AND USING THE SAME” (Battelle Memorial Institute, priority 2017, published 2019)
